We go through 9 molecules from paper PMC9822940, “Antiplasmodial activity, structure–activity relationship and studies on the action of novel benzimidazole derivatives” (Scientific Reports, 2023).

In this data set the test system is P. falciparum HB3 strain. As to the kind of experiment: Antiplasmodial activity against P. falciparum HB3 strain in culture. Format: cell-based, Plasmodium falciparum. The note with it: Vero CC50 versus HB3 IC50. As for the experimental part:
In vitro activity of BZ. All BZ derivatives were tested at 10 μM against the HB3 strain of Pf, and for those compounds with a percentage of growth inhibition (% GI) higher than 50%, the IC50 values were determined. In addition, their cytotoxicity on epithelial Vero cell cultures was evaluated to calculate their selectivity indexes (SI), Table 1. An index of 10 or above is expected for a lead compound.
The chloroquine-sensitive […] and chloroquine-resistance 7G8 strain […] of P. falciparum were used throughout. Infected erythrocytes were kept in culture using the protocol established by Haynes et al.[44], basically utilizing human O^+ erythrocytes kept in an RPMI medium supplemented with glutamine and 10% human serum incubated in an atmosphere of 90% N2, 5% O2 and 5% CO2.
Consider `Cc1ccc2[nH]c(NC(=O)c3ccc(-c4ccccc4)cn3)nc2c1` [BZ 7], for which the “SI (selectivity index)” value worked out at 2.5.

Turning to `Cc1ccc2[nH]c(NC(=O)c3ccc4ccccc4n3)nc2c1` [BZ 9], the “SI (selectivity index)” value was 4.5.

`CCCCc1ccc(C(=O)Nc2nc3cc(Cl)ccc3[nH]2)nc1` [BZ 17]: the “SI (selectivity index)” value was 1.0. Take `COc1ccc2[nH]c(NC(=O)c3ccc(-c4ccccc4)cn3)nc2c1` [BZ 28]: the “SI (selectivity index)” value is on record as 3.3.

Take `O=C(Nc1nc2cc([N+](=O)[O-])ccc2[nH]1)c1ccccn1` [BZ 29]: the “SI (selectivity index)” value was determined as 2.7. To `CCCCCCCCC(NC(=O)OC(C)(C)C)C(=O)Nc1ccc2[nH]c(NC(=O)c3ccccn3)nc2c1` (stereo not drawn) [BZ 31] belongs 3.16; to `CCCCCCCCC(N)C(=O)Nc1ccc2[nH]c(NC(=O)c3ccccn3)nc2c1` (stereo not drawn) [BZ 32], 2.43. To `CCCCc1ccc(C(=O)Nc2nc3cc(C)c(C)cc3[nH]2)nc1` [BZ 34] belongs 1.0; to `Cc1cc2nc(NC(=O)c3ccc(-c4ccccc4)cn3)[nH]c2cc1C` [BZ 35], 1.3.
